Results of unrelated studies side by side (data: NIAID ChemDB).

Shared fields: growth or infection tests; species: Mycobacterium tuberculosis

a–b is a range or a potency band.

SMILES,dose,read by,read-out,strain,mutations,value
COC(=O)C1C(O)C(C)C(=O)C(C)/C=C\C=C(C)C(=O)Nc2c(C)c(OC(C)=O)c3c(c2O)C(=O)C(C)=C2OCOC(=C23)/C(C)=C\C(C)(O)C(O)C(C)C1O,-,BACTEC,MIC,H37Rv,-,≥12.8 µg/mL
c1cncc(CSc2nc3ccccc3o2)c1,-,-,MIC,My 331/88,-,250 µM
CCCCCCCCN1C(=O)CS(=O)(=O)C12CCCCC2,-,resazurin,EC50,H37Ra,-,<25 µg/mL
N[C@]1(C(=O)O)CC[C@H](C(=O)O)C1,12.5 µg/mL,BACTEC,inhibition,H37Rv,-,5%
CCCCCCCCCCNC1CC(=O)N(CCCCCCCCCC)C1=O,-,-,MIC,H37Rv,-,≤20 µg/mL
CCN1CCc2c(sc(NC(=O)c3c(F)c(F)c(F)c(F)c3F)c2C(N)=O)C1,-,low oxygen,EC90,-,-,43 µM
CCCCCCCCCCCCN1C(=O)C(CC(=O)O)SC12CCN(OC(=O)C(C)(C)C)CC2,25 µg/mL,resazurin,inhibition,H37Ra,-,96%
CCOC(=O)c1cc(-c2cccc(N)c2)on1,-,resazurin,MIC,H37Rv,-,1.6 µM
Cc1nc(N)c(=O)[nH]c1C,-,BACTEC,MIC bound,H37Rv,-,>12.5 µg/mL
CCCCCCCCCN1C(=O)CC(Nc2ccc(N3CCCCC3)cc2)C1=O,-,-,MIC,H37Rv,-,≤20 µg/mL
O=C(c1ccco1)N1CCCN(C(=O)c2ccco2)C1=S,-,resazurin,MIC bound,H37Rv,-,>6.25 µg/mL
Cc1c(Cc2ccccc2Br)cnc2nc(N)nc(N)c12,-,resazurin / fluorescence,MIC90,H37Rv,-,1.25 µM
N#Cc1c(NC(=O)c2c(F)c(F)c(F)c(F)c2F)sc2c1CCOC2,-,turbidity,EC50,H37Rv,katG Y155 truncation mutant,5.6 µM
c1cc(CSc2ncn[nH]2)ccn1,-,-,MIC,My 331/88,-,1000 µM
COc1ccc(NC(=O)OCCN2CCOCC2)cc1,-,-,MIC,My 331/88,-,1000 µM
CC(=O)O[C@@H]1c2c3c(n(C#N)c2[C@H](OC(C)=O)[C@](C)(O)[C@H]1OC(C)=O)C(=O)c1c(O)cccc1C3=O,-,BACTEC,MIC bound,H37Rv,-,≤12.8 µg/mL
CCN(CC)CCNC(=O)c1ccc(Cl)cc1,-,-,MIC,N73,-,50 µg/mL
CCOC(=O)c1c(NC(=O)c2c(F)c(F)c(F)c(F)c2F)sc2c1CCNC2=O,-,turbidity,EC50,H37Rv,katG Y155 truncation mutant,1.3 µM
CCCCN1C(=O)C=CC1=O,-,-,MIC,Clinical isolate (isoniazid-resistant),-,≤20 µg/mL
O=C1c2ccccc2C(=O)c2sccc21,-,resazurin,MIC bound,H37Rv,-,>6.25 µg/mL
Cc1ccccc1Cn1ccc2c3c(N)nc(N)nc3ccc21,-,resazurin / fluorescence,MIC90,H37Rv,-,1 µM
c1cncc(CSc2nc3ccccc3s2)c1,-,-,MIC,My 331/88,-,125 µM
O=C1OC(c2ccccc2)=N/C1=C\c1cccn(-c2ccccc2)c1=S,-,BACTEC,MIC bound,H37Rv,-,>12.5 µg/mL
CCOC(=O)c1cc(CNc2cc(OC)cc(OC)c2)on1,-,resazurin,MIC,H37Rv,-,31.4 µM
Cc1ccc2nc(SCc3cccc4ccccc34)[nH]c2c1,-,-,MIC,My 331/88,-,62.5 µM
c1ccc2c(c1)ncc1cc3c(cc12)[nH]c1ccccc13,-,resazurin,MIC bound,H37Rv,-,>6.25 µg/mL
CCN1CCc2c(sc(NC(=O)c3c(F)c(F)c(F)c(F)c3F)c2C#N)C1,-,turbidity,EC50,H37Rv,gyrA mutant (D94N),8.4 µM
CCCCCOc1ccc(NC(=O)OCCN2CCCCC2)cc1,-,-,MIC,My 331/88,-,62.5 µM
CCOC(=O)c1c(NC(=O)c2c(F)c(F)c(F)c(F)c2F)sc2c1CCOC2,-,low oxygen,MIC,-,-,4.4 µM
Cc1c(F)cc2c(=O)c(C(=O)O)cn3c2c1CCC3C,-,-,MIC50,100 strains,-,3.2 µg/mL
COC(=O)C1C(O)C(C)C(O)C(C)(O)C=C(C)C2=C3C(=C(C)C(=O)c4c(O)c(c(C)c(OC(C)=O)c43)NC(=O)/C(C)=C/C=C\C(C)C3OC(C)(C)OC1C3C)OCO2,-,BACTEC,MIC bound,H37Rv,-,>12.5 µg/mL
COc1cc(/C=C/[N+](=O)[O-])cc(Oc2c(I)cc(CC(=O)O)cc2I)c1OC,-,-,MIC,H37Rv,-,1000 µg/mL
CCCCCCCOc1ccccc1NC(=O)OCCN1CCCCCC1,-,-,MIC,My 331/88,-,8 µM
CCOC(=O)c1cc(CNc2cccc(OC)c2)on1,-,resazurin,MIC,H37Rv,-,12 µM
CCCCCCCCCCCCN1C(=O)C(CC(=O)O)SC12CCN(C(=O)C(N)C(C)CC)CC2,-,resazurin,EC50,H37Ra,-,<25 µg/mL
CCCOc1ccccc1NC(=O)OCCN1CCOCC1,-,-,MIC,My 331/88,-,1000 µM
CCCCCCCCCCCCN1C(=O)C(C)SC12CCCCC2,25 µg/mL,resazurin,inhibition,H37Ra,-,2%
Nc1sc(-c2ccccc2)cc1C(=O)O,-,resazurin,EC50,H37Rv,-,28.29 µg/mL
CCCCCCCCCCCCN1C(=O)C(CC(=O)O)SC12CCCCCCC2,25 µg/mL,resazurin,inhibition,H37Ra,-,96%
c1ccc2c(CSc3nc4ccccc4s3)cccc2c1,-,-,MIC,My 331/88,-,>500 µM
CSC(=S)NN=C1CCCCC1,-,-,MIC,PZA-R,-,12.8 µg/mL
CCN(CC)CCNC(=O)c1ccc([N+](=O)[O-])cc1,-,-,MIC,N73,-,50 µg/mL
Cc1nn2c(=O)c([N+](=O)[O-])c(/C=C/c3ccc(F)cc3)nc2s1,6.25 µg/mL,resazurin,inhibition,H37Rv,-,21%
CNn1cc(C(=O)O)c(=O)c2cc(F)c(N3CCN(C)CC3)cc21,-,-,MIC90,19 strains,-,12.5 µg/mL
COC(=O)c1ccc(Oc2cc(C(OC(C)=O)OC(C)=O)cc(OC)c2OC(C)=O)cc1,-,-,MIC,H37Rv,-,31.25–62.5 µg/mL
O=S(=O)(O)C1=CC(=N/Br)/C=CC/1=N\Br,12.5 µg/mL,BACTEC,inhibition,H37Rv,-,2%
COC(=O)Cc1ccc(Oc2cc(C(OC(C)=O)OC(C)=O)cc(OC)c2OC(C)=O)cc1,-,-,MIC,H37Rv,-,500–1000 µg/mL
C=C/C(C)=C/[C@@]1(C)SC(=O)C(C)=C1O,-,-,MIC,PMH29:kasA/kasB,-,30 µg/mL
COc1cc(/C=C/[N+](=O)[O-])cc(Br)c1O,-,-,MIC,H37Rv,-,125 µg/mL
CCCCCCCCc1ccc(Oc2ccccc2)c(O)c1,-,-,MIC99,W210,-,2.6 µg/mL
CCOC(=O)c1cc(CNc2cc(F)ccc2F)on1,-,low oxygen,MIC,H37Rv,-,15.2 µM
COc1cc(/C=C/C(C)C)cc(Oc2c([N+](=O)[O-])cc(/C=C/C(=O)O)cc2[N+](=O)[O-])c1O,-,-,MIC,H37Rv,-,7.8 µg/mL
CCN1CCc2c(sc(NC(=O)c3c(F)c(F)c(F)c(F)c3F)c2C(=O)NC)C1,-,turbidity,EC90,ATCC 35822,-,3 µM
CCCOc1ccccc1NC(=O)OCCN(C)C,-,-,MIC,My 331/88,-,1000 µM
Cc1c(S(=O)(=O)c2ccccc2)c(N)n(Cc2ccccc2)c1C,6.25 µg/mL,resazurin,inhibition,H37Rv,-,-10%
CCCCCCCCCN1C(=O)CC(NCCCCCCCC)C1=O,-,-,MIC,H37Ra,-,≤20 µg/mL
N#Cc1ccc(Cn2ccc3c4c(N)nc(N)nc4ccc32)cc1,-,resazurin / fluorescence,MIC90,H37Rv,Overexpressing DHFR,>2 µM
CCCCCCCCCN1C(=O)CC(SCCNC(=O)c2ccc(CCCC)cc2)C1=O,-,-,MIC,Clinical isolate (isoniazid-resistant),-,≤20 µg/mL
COc1cc(-c2ccc(N=NC(C(C)=O)C(=O)Nc3ccccc3C)c(OC)c2)ccc1N=NC(C(C)=O)C(=O)Nc1ccccc1C,-,BACTEC,MIC,H37Rv,-,≥12.5 µg/mL
CCCCCCCCCNC1CC(=O)N(CCCCCCCCC)C1=O,-,-,MIC,H37Rv,-,≤20 µg/mL
NC1=NC2(CCCCC2)N(OCCCOc2ccc3ccccc3c2)C(N)=N1,-,resazurin / fluorescence,MIC90,H37Rv,-,0.5 µM
COc1ccc(CC(=S)N2CCOCC2)cc1,-,-,MIC,H37Rv,-,250 µg/mL
NC1=CNC(=O)C1,12.5 µg/mL,BACTEC,inhibition,H37Rv,-,5%
COc1ccc(-c2nc3c(N)nc(N)nc3nc2C(C)C)cc1,-,resazurin / fluorescence,MIC90,H37Rv,Overexpressing DHFR,250 µM
N#Cc1cc(SCc2cccc3ccccc23)ccn1,-,-,MIC,My 331/88,-,>125 µM
CCNC(=O)c1c(NC(=O)c2c(F)c(F)c(F)c(F)c2F)sc2c1CCN(CC)C2,-,turbidity,EC90,ATCC 35822,-,13 µM
COc1ccc(C(=O)c2c(C(=O)NOCCCc3ccccc3)[nH]c(=O)c(C#N)c2C(=O)NOCCCc2ccccc2)cc1,6.25 µg/mL,resazurin,inhibition,H37Rv,-,2%
COC(=O)c1ccc(Oc2cc(C=O)cc(OC)c2OC(C)=O)cc1,-,-,MIC,H37Rv,-,250–500 µg/mL
CCCCCCCCN1C(=O)CC(SCC(N)C(=O)O)C1=O,-,-,MIC,H37Rv,-,≤20 µg/mL
c1cncc(CSc2ncn[nH]2)c1,-,-,MIC,My 331/88,-,>1000 µM
COC(=O)[C@H]1[C@H](O)[C@@H](C)[C@@H](O)[C@](C)(O)/C=C(\C)C2=C3C(=C(C)C(=O)c4c(O)c(c(C)c(OC(C)=O)c43)NC(=O)/C(C)=C/C=C\[C@@H](C)C(O)[C@@H](C)[C@H]1O)OCO2,128 µg/mL,BACTEC,inhibition,H37Rv,-,99%
CC[n+]1c(-c2ccccc2)c2cc(N)ccc2c2ccc(N)cc21,-,PCR,MIC,rif,-,>128 µg/mL
NNC(=O)c1ccncc1,-,-,MIC99,NHN20,-,0.03 µg/mL
O=C1OCC2(C(=O)O)C(=O)OCC12,12.5 µg/mL,BACTEC,inhibition,H37Rv,-,0%
CCOC(=O)c1cc(CNc2ccc(OC(F)(F)F)cc2)on1,-,resazurin,MIC,H37Rv,-,0.8 µM
CCCOc1cccc(NC(=O)OCC[NH+]2CCCC2)c1,-,-,MIC,My 331/88,-,500 µM
C=C1C(=O)O[C@@H]2C[C@@]3(C)C[C@@H](O)[C@H](O)C(=C)[C@@H]3C[C@H]12,-,resazurin,MIC bound,H37Rv,-,>6.25 µg/mL
CCCCCCCCCCCCN1C(=O)C(CC(=O)O)SC12CCC(C(C)(C)C)CC2,-,resazurin,EC50,H37Ra,-,<25 µg/mL
CCCCCCCCOc1ccc(NC(=O)OCCN(C)C)cc1,-,-,MIC,My 331/88,-,8 µM
NC(=S)c1cc(SCc2cccnc2)ccn1,-,-,MIC,My 331/88,-,2 µM
COc1cc(C(OC(C)=O)OC(C)=O)ccc1Oc1cc(C(OC(C)=O)OC(C)=O)cc(OC)c1OC(C)=O,-,-,MIC,H37Rv,-,125–250 µg/mL
CCCCCCCCN1C(=O)C(C)SC12CCCCC2,25 µg/mL,resazurin,inhibition,H37Ra,-,87%
N[C@@H]1CN(c2c(F)cc3c(=O)c(C(=O)O)cn([C@@H]4C[C@@H]4F)c3c2Cl)CC12CC2,-,resazurin,MIC50,Clinical strain,Pre-XDR (fluoroquinolone-resistant),0.25 µg/mL
CCCCCCCCCN1C(=O)CC(SCCNC(=O)c2ccc([N+](=O)[O-])cc2)C1=O,-,-,MIC,H37Ra,-,≤20 µg/mL
CCOC(=O)NC(=S)NN(C)C1=NCC(C)(C)S1,6.25 µg/mL,resazurin,inhibition,H37Rv,-,-8%
CCCCCCCCCCCCN1C(=O)C(CC(=O)O)SC12CCCC2,25 µg/mL,resazurin,inhibition,H37Ra,-,97%
CCCCCCCCN1C(=O)CC(C)(SCC(N)C(=O)O)C1=O,-,-,MIC,Clinical isolate (isoniazid-resistant),-,≤20 µg/mL
CCN(CC)CCNC(=O)c1ccc([N+](=O)[O-])cc1Cl,-,-,MIC,N73,-,50 µg/mL

Repeating the first 13 entries:

SMILES | dose | read by | read-out | strain | mutations | value
COC(=O)C1C(O)C(C)C(=O)C(C)/C=C\C=C(C)C(=O)Nc2c(C)c(OC(C)=O)c3c(c2O)C(=O)C(C)=C2OCOC(=C23)/C(C)=C\C(C)(O)C(O)C(C)C1O | - | BACTEC | MIC | H37Rv | - | ≥12.8 µg/mL
c1cncc(CSc2nc3ccccc3o2)c1 | - | - | MIC | My 331/88 | - | 250 µM
CCCCCCCCN1C(=O)CS(=O)(=O)C12CCCCC2 | - | resazurin | EC50 | H37Ra | - | <25 µg/mL
N[C@]1(C(=O)O)CC[C@H](C(=O)O)C1 | 12.5 µg/mL | BACTEC | inhibition | H37Rv | - | 5%
CCCCCCCCCCNC1CC(=O)N(CCCCCCCCCC)C1=O | - | - | MIC | H37Rv | - | ≤20 µg/mL
CCN1CCc2c(sc(NC(=O)c3c(F)c(F)c(F)c(F)c3F)c2C(N)=O)C1 | - | low oxygen | EC90 | - | - | 43 µM
CCCCCCCCCCCCN1C(=O)C(CC(=O)O)SC12CCN(OC(=O)C(C)(C)C)CC2 | 25 µg/mL | resazurin | inhibition | H37Ra | - | 96%
CCOC(=O)c1cc(-c2cccc(N)c2)on1 | - | resazurin | MIC | H37Rv | - | 1.6 µM
Cc1nc(N)c(=O)[nH]c1C | - | BACTEC | MIC bound | H37Rv | - | >12.5 µg/mL
CCCCCCCCCN1C(=O)CC(Nc2ccc(N3CCCCC3)cc2)C1=O | - | - | MIC | H37Rv | - | ≤20 µg/mL
O=C(c1ccco1)N1CCCN(C(=O)c2ccco2)C1=S | - | resazurin | MIC bound | H37Rv | - | >6.25 µg/mL
Cc1c(Cc2ccccc2Br)cnc2nc(N)nc(N)c12 | - | resazurin / fluorescence | MIC90 | H37Rv | - | 1.25 µM
N#Cc1c(NC(=O)c2c(F)c(F)c(F)c(F)c2F)sc2c1CCOC2 | - | turbidity | EC50 | H37Rv | katG Y155 truncation mutant | 5.6 µM

ECn: concentration that inhibits the pathogen or its effect by n%. MIC bound comes from a single tested concentration. Conditions beyond the fields shown may differ between rows. Blank or dashed fields: not listed here. Inhibition is in % at the dose shown (toxicity tests: loss of growth or viability). A number after MIC or MFC names an inhibition level or a share of isolates.